Anti-infective test results gathered from many reports (values: NIAID ChemDB through PubChem).

Shared fields: whole-cell or culture tests; species: Candida albicans; measure: MIC90

MIC50, MIC90 and the like: level of inhibition, or share of isolates inhibited.

{"smiles": "CCOC(=O)c1c(-c2ccccc2)c2ccc(Cl)cc2oc1=O", "strain": "ATCC 90028", "method": "broth dilution / absorbance", "result": ">100 µg/mL"}
{"smiles": "CCC(C)n1ncn(-c2ccc(N3CCN(c4ccc(OC[C@H]5CO[C@](Cn6cncn6)(c6ccc(Cl)cc6Cl)O5)cc4)CC3)cc2)c1=O", "strain": "ATCC 90028 (azole-susceptible)", "result": "0.0063 µg/mL"}
{"smiles": "CNC(CCC(C)C1CC[C@@]2(C)C3=C(CCC12C)C1(C)CC[C@H](O)C(C)(C)C1CC3)C(C)C", "strain": "A.10231", "result": "100 µg/mL"}
{"smiles": "C[C@@H](c1ncncc1F)[C@](O)(Cn1cncn1)c1ccc(F)cc1F", "strain": "Isolate M27-T-micro", "setting": "24 h", "result": "0.19 µg/mL"}
{"smiles": "C[C@@H](c1ncncc1F)[C@](O)(Cn1cncn1)c1ccc(F)cc1F", "method": "broth dilution", "result": "0.5 µg/mL"}
{"smiles": "Fc1ccc(OC(CCn2ccnc2)c2ccccc2)c(F)c1", "strain": "20 strains", "result": "64 µg/mL"}
{"smiles": "C[C@@H](SC1COC(/C=C/C=C/c2ccc(C#N)cc2F)OC1)[C@](O)(Cn1cncn1)c1ccc(F)cc1F", "strain": "139 strains", "result": "≤0.008 µg/mL"}
{"smiles": "c1ccc(-c2c[nH]cc2C(c2cccc3ccccc23)n2ccnc2)cc1", "strain": "33 strains", "result": "8 µg/mL"}
{"smiles": "CC(C)C(CCC(C)C1CCC2C3CC=C4C[C@@H](O)CCC4(C)C3CCC12C)NS(=O)(=O)O", "strain": "B02630", "result": "6.25 µg/mL"}
{"smiles": "c1ccc(-c2ccc(C(c3ccccc3)n3ccnc3)cc2)cc1", "strain": "30 strains", "result": "20 µg/mL"}
{"smiles": "CC[C@@H]([C@H](C)O)n1ncn(-c2ccc(N3CCN(c4ccc(OC[C@@H]5CO[C@@](Cn6cncn6)(c6ccc(F)cc6F)C5)cc4)CC3)cc2)c1=O", "strain": "13 strains (fluconazole-resistant)", "result": ">8 µg/mL"}
{"smiles": "Cc1c2n(c3ccccc13)CCNC2c1ccccc1[N+](=O)[O-]", "result": "250 µg/mL"}
{"smiles": "c1ccc(-c2ccc(C(c3c[nH]cc3-c3ccccc3)n3ccnc3)cc2)cc1", "strain": "33 strains", "result": "32 µg/mL"}
{"smiles": "CC(C)C(N)CCC(C)C1CC[C@@]2(C)C3=C(CCC12C)C1(C)CC[C@H](O)C(C)(C)C1CC3", "strain": "IFO. 1385", "result": "6.25 µg/mL"}
{"smiles": "Fc1ccccc1COc1ccc(C(c2ccc3ccccc3c2)n2ccnc2)cc1", "strain": "17 strains", "result": "256 µg/mL"}
{"smiles": "CCC(C)CC(C)CCCCCCCCC(=O)N[C@H]1C[C@@H](O)[C@H](NCCN)NC(=O)[C@@H]2[C@@H](O)CCN2C(=O)[C@H]([C@H](O)CCN)NC(=O)[C@H]([C@H](O)[C@@H](O)c2ccc(O)cc2)NC(=O)[C@@H]2C[C@@H](O)CN2C(=O)[C@H]([C@@H](C)O)NC1=O", "strain": "733 strains", "result": "0.5 µg/mL"}
{"smiles": "NCCNC(=O)C1=Nc2ccc(NC(=O)C3=Nc4ccc(C(=O)Nc5ccc6[nH]c(C(=O)NCCN)cc6c5)cc4C3)cc2C1", "strain": "31 isolates", "result": "15 µg/mL"}
{"smiles": "Cc1c2n(c3ccccc13)CCNC2c1ccc(F)cc1", "result": "125 µg/mL"}
{"smiles": "CCC(C)n1ncn(-c2ccc(N3CCN(c4ccc(OC[C@H]5CO[C@](Cn6cncn6)(c6ccc(Cl)cc6Cl)O5)cc4)CC3)cc2)c1=O", "strain": "1992 isolates", "result": "0.12 µg/mL"}
{"smiles": "C[C@@H](SC1COC(/C=C/C=C/c2ccc(C#N)cc2F)OC1)[C@](O)(Cn1cncn1)c1ccc(F)cc1F", "strain": "25 isolates fluconazole-resistant", "result": "4 µg/mL"}
{"smiles": "Nc1[nH]c(=O)ncc1F", "strain": "97 isolates", "result": "0.5 µg/mL"}
{"smiles": "C[C@H]1[C@H](O)[C@@H](C)/C=C/C=C/C=C/C=C/C=C/C=C/C=C/[C@H](O[C@@H]2O[C@H](C)[C@@H](O)[C@H](N)[C@@H]2O)C[C@@H]2O[C@](O)(C[C@@H](O)C[C@@H](O)CC[C@H](O)[C@@H](O)C[C@@H](O)CC(=O)O[C@H]1C)C[C@H](O)[C@H]2C(=O)O", "result": "0.78 µg/mL"}
{"smiles": "CC(N1CCN(c2ccc(-n3cnnn3)cc2)C1=O)[C@](O)(Cn1cncn1)c1ccc(F)cc1F", "strain": "105 strains", "result": "0.25 µg/mL"}
{"smiles": "Clc1ccc(C(c2ccccc2)n2nnc3ccccc32)cc1", "method": "agar", "result": ">256 µg/mL"}
{"smiles": "C=CCSS(=O)CC=C", "strain": "ATCC 10231", "method": "broth dilution", "result": "1000 µg/mL"}
{"smiles": "CCC(C)CC(C)CCCCCCCCC(=O)N[C@H]1C[C@@H](O)[C@H](NCCN)NC(=O)[C@@H]2[C@@H](O)CCN2C(=O)[C@H]([C@H](O)CCN)NC(=O)[C@H]([C@H](O)[C@@H](O)c2ccc(O)cc2)NC(=O)[C@@H]2C[C@@H](O)CN2C(=O)[C@H]([C@@H](C)O)NC1=O", "strain": "50 isolates", "result": "0.4 µg/mL"}
{"smiles": "C=CCSS(=O)CC=C", "strain": "Clinical Isolate 3072", "method": "broth dilution", "result": "0.78 µg/mL"}
{"smiles": "C[C@H]1[C@H](O)[C@@H](C)/C=C/C=C/C=C/C=C/C=C/C=C/C=C/[C@H](O[C@@H]2O[C@H](C)[C@@H](O)[C@H](N)[C@@H]2O)C[C@@H]2O[C@](O)(C[C@@H](O)C[C@@H](O)CC[C@H](O)[C@@H](O)C[C@@H](O)CC(=O)O[C@H]1C)C[C@H](O)[C@H]2C(=O)O", "strain": "ATCC 10261", "method": "broth dilution / turbidity", "result": "0.5 µg/mL"}
{"smiles": "C=C(Cl)CN1C[C@H](OCC23C[C@@H]4[C@H](C)CC[C@H]4C4(C=O)CC2C=C(C(C)C)C34C(=O)O)O[C@H](C)C1", "strain": "20 isolates", "result": "0.004 µg/mL"}
{"smiles": "Clc1ccc(C(c2ccccc2)N2CCN(CCn3cncn3)CC2)cc1", "method": "agar", "result": "32 µg/mL"}
{"smiles": "CC[C@@H]([C@H](C)O)n1ncn(-c2ccc(N3CCN(c4ccc(OC[C@@H]5CO[C@@](Cn6cncn6)(c6ccc(F)cc6F)C5)cc4)CC3)cc2)c1=O", "strain": "660 isolates", "result": "0.06 µg/mL"}
{"smiles": "c1ccc(-c2c[nH]cc2C(c2ccc3ccccc3c2)n2ccnc2)cc1", "strain": "33 strains", "result": "16 µg/mL"}
{"smiles": "Clc1ccc(C(c2ccccc2)n2ccnc2)cc1", "method": "agar", "result": "0.5 µg/mL"}
{"smiles": "CCOC(=O)c1c(-c2ccccc2)c2cc(Cl)ccc2oc1=O", "strain": "ATCC 90028", "method": "broth dilution / absorbance", "result": ">100 µg/mL"}
{"smiles": "CCC(C)CC(C)CCCCCCCCC(=O)N[C@H]1C[C@@H](O)[C@H](NCCN)NC(=O)[C@@H]2[C@@H](O)CCN2C(=O)[C@H]([C@H](O)CCN)NC(=O)[C@H]([C@H](O)[C@@H](O)c2ccc(O)cc2)NC(=O)[C@@H]2C[C@@H](O)CN2C(=O)[C@H]([C@@H](C)O)NC1=O", "method": "broth dilution", "result": "4 µg/mL"}
{"smiles": "CC(N1CCN(c2ccc(-n3cnn(Cc4ccc(C(F)(F)F)cc4)c3=O)cc2)CC1)C(O)(Cn1cncn1)c1ccc(F)cc1F", "strain": "51 strains (fluconazole-susceptible)", "result": "0.09 µg/mL"}
{"smiles": "Cc1c2n(c3ccccc13)CCN(Cc1ccc3n[nH]nc3c1)C2", "result": "250 µg/mL"}
{"smiles": "C[C@@H](c1nc(-c2ccc(C#N)cc2)cs1)[C@](O)(Cn1cncn1)c1ccc(F)cc1F", "result": "0.025 µg/mL"}
{"smiles": "CON=C1C2CC(C)CC1C(c1cccc(F)c1)NC2c1cccc(F)c1", "result": "8 µg/mL"}
{"smiles": "C=CCc1ccc(O)c(OC)c1", "strain": "3031", "method": "turbidity", "result": "490 µg/mL"}
{"smiles": "C[C@H]1[C@H](O)[C@@H](C)/C=C/C=C/C=C/C=C/C=C/C=C/C=C/[C@H](O[C@@H]2O[C@H](C)[C@@H](O)[C@H](N)[C@@H]2O)C[C@@H]2O[C@](O)(C[C@@H](O)C[C@@H](O)CC[C@H](O)[C@@H](O)C[C@@H](O)CC(=O)O[C@H]1C)C[C@H](O)[C@H]2C(=O)O", "strain": "34 isolates", "result": "0.5 µg/mL"}
{"smiles": "CC(C)C(N)CCC(C)C1CCC2C3CC=C4C[C@@H](O)CCC4(C)C3CCC12C", "strain": "B02630", "result": "1.56 µg/mL"}
{"smiles": "CC(=O)N1CCN(c2ccc(OC[C@H]3CO[C@](Cn4ccnc4)(c4ccc(Cl)cc4Cl)O3)cc2)CC1", "strain": "126 strains", "result": "8 µg/mL"}
{"smiles": "Cc1c2n(c3ccccc13)CCNC2c1cccs1", "result": "250 µg/mL"}
{"smiles": "CN[C@H]1CC[C@@H](c2ccc(Cl)c(Cl)c2)c2ccccc21", "strain": "SC5314", "method": "broth dilution", "result": "32 µg/mL"}
{"smiles": "Clc1ccccc1COc1ccc(C(c2ccc(-c3ccccc3)cc2)n2ccnc2)cc1.O=[N+]([O-])O", "strain": "16 strains", "result": "≥256 µg/mL"}
{"smiles": "Nc1[nH]c(=O)ncc1F", "strain": "Fluconazole-susceptible", "result": "1 µg/mL"}
{"smiles": "Clc1ccc(COc2ccc(C(c3cccc4ccccc34)n3ccnc3)cc2)c(Cl)c1.O=[N+]([O-])O", "strain": "16 strains", "result": "≥256 µg/mL"}
{"smiles": "COc1ccc(C(c2ccc(OC)cc2)n2cncn2)cc1", "method": "agar", "result": ">256 µg/mL"}
{"smiles": "Fc1ccccc1C(c1nccc2ccccc12)n1ccnc1", "strain": "44 strains", "result": ">256 µg/mL"}
{"smiles": "Clc1ccc(C(c2ccccc2)n2cncn2)cc1", "method": "agar", "result": "32 µg/mL"}
{"smiles": "Nc1ncccc1-c1cc(Cc2ccc(COc3ccccn3)cc2)no1", "method": "broth dilution", "result": "<0.03 µg/mL"}
{"smiles": "Clc1ccccc1C(c1nccc2ccccc12)n1ccnc1", "strain": "44 strains", "result": "256 µg/mL"}
{"smiles": "CCCCCOc1ccc(-c2cc(-c3ccc(C(=O)N[C@H]4C[C@@H](O)[C@@H](O)NC(=O)[C@@H]5[C@@H](O)[C@@H](C)CN5C(=O)[C@H]([C@H](O)CC(N)=O)NC(=O)[C@H]([C@H](O)[C@@H](O)c5ccc(O)c(OS(=O)(=O)O)c5)NC(=O)[C@@H]5C[C@@H](O)CN5C(=O)[C@H]([C@@H](C)O)NC4=O)cc3)no2)cc1", "strain": "24 strains", "result": "0.0156 µg/mL"}
{"smiles": "C[C@H]1[C@H](O)[C@@H](C)/C=C/C=C/C=C/C=C/C=C/C=C/C=C/[C@H](O[C@@H]2O[C@H](C)[C@@H](O)[C@H](N)[C@@H]2O)C[C@@H]2O[C@](O)(C[C@@H](O)C[C@@H](O)CC[C@H](O)[C@@H](O)C[C@@H](O)CC(=O)O[C@H]1C)C[C@H](O)[C@H]2C(=O)O", "strain": "40 strains", "result": "0.25 µg/mL"}
{"smiles": "CCCCCCCCCCCCCCCCOP(=O)([O-])OCC[N+](C)(C)C", "result": "2 µg/mL"}
{"smiles": "CCS(=O)(=O)C(F)(F)C(O)(Cn1cncn1)c1ccc(F)cc1F", "strain": "55 strains", "result": "0.125 µg/mL"}
{"smiles": "C=C1CO[C@H]2[C@@H](C)OC(OC[C@@]34C[C@H]5[C@H](C)CC[C@@H]5[C@@]5(C=O)C[C@@H]3C=C(C(C)C)[C@@]45C(=O)O)C[C@@H]12", "strain": "66 strains (fluconazole-susceptible)", "result": "0.06 µg/mL"}

A second listing of 5 rows from above:

{"smiles": "CCCCCOc1ccc(-c2cc(-c3ccc(C(=O)N[C@H]4C[C@@H](O)[C@@H](O)NC(=O)[C@@H]5[C@@H](O)[C@@H](C)CN5C(=O)[C@H]([C@H](O)CC(N)=O)NC(=O)[C@H]([C@H](O)[C@@H](O)c5ccc(O)c(OS(=O)(=O)O)c5)NC(=O)[C@@H]5C[C@@H](O)CN5C(=O)[C@H]([C@@H](C)O)NC4=O)cc3)no2)cc1", "strain": "24 strains", "result": "0.0156 µg/mL"}
{"smiles": "CC(N1CCN(c2ccc(-n3cnn(Cc4ccc(C(F)(F)F)cc4)c3=O)cc2)CC1)C(O)(Cn1cncn1)c1ccc(F)cc1F", "strain": "51 strains (fluconazole-susceptible)", "result": "0.09 µg/mL"}
{"smiles": "Cc1c2n(c3ccccc13)CCNC2c1cccs1", "result": "250 µg/mL"}
{"smiles": "c1ccc(-c2c[nH]cc2C(c2cccc3ccccc23)n2ccnc2)cc1", "strain": "33 strains", "result": "8 µg/mL"}
{"smiles": "C[C@H]1[C@H](O)[C@@H](C)/C=C/C=C/C=C/C=C/C=C/C=C/C=C/[C@H](O[C@@H]2O[C@H](C)[C@@H](O)[C@H](N)[C@@H]2O)C[C@@H]2O[C@](O)(C[C@@H](O)C[C@@H](O)CC[C@H](O)[C@@H](O)C[C@@H](O)CC(=O)O[C@H]1C)C[C@H](O)[C@H]2C(=O)O", "strain": "34 isolates", "result": "0.5 µg/mL"}

Rows are shuffled and stem from different studies.